A mixed list of measured activities; the numbers were collected in NIAID ChemDB.

Shared fields: tests in culture; organism: Bovine viral diarrhea virus

ECn is the concentration giving n% inhibition of infection, replication or growth. Blank or dashed fields: not listed here. Two numbers with a dash give a range or band. Lines come from different laboratories, so protocols vary.

| SMILES | read by | read-out | cell line | strain or isolate | result |
|---|---|---|---|---|---|
| CO[C@H]1O[C@@H]2O[C@@]3(C)CC[C@H]4[C@H](C)CC[C@@H]([C@H]1C)[C@@]24OO3 | MTS | EC50 | MDBK | PE515 | 0.3 µg/mL |
| CCCCN1C[C@H](O)[C@@H](O)[C@H](O)[C@H]1CO | plaque count | EC50 | MDBK |  | 125–200 µM |
| Nc1nc(=O)n2ccn([C@@H]3O[C@H](CO)[C@@H](O)[C@H]3O)c2n1 | cytopathic effect | EC50 | VERO |  | 0.6 µg/mL |
| NC(=O)c1ncn([C@@H]2O[C@H](CO)[C@@H](O)[C@H]2O)n1 | cytopathic effect | EC50 | MDBK |  | 3.8 µM |
| CCCCN1C[C@H](O)[C@@H](O)[C@H](O)[C@H]1CO | cytopathic effect | EC50 | MDBK |  | >1000 µM |
| C[C@H]1[C@@H](O)O[C@@H]2OC3(C)CC[C@H]4[C@H](C)CC[C@@H]1[C@@]24OO3 | MTS | EC50 | MDBK | PE515 | 0.05 µg/mL |
| O[C@H]1[C@H](O)[C@@H](O)CN2CC[C@H](O)[C@H]12 | plaque count | EC50 | MDBK |  | 110.2 µM |
| O[C@H]1[C@H](O)[C@@H](O)CN2CC[C@H](O)[C@H]12 | plaque count | EC50 | MDBK |  | 216.6 µM |
| OC[C@@H]1[C@@H](O)[C@H](O)[C@@H](O)CN1CCCCc1ccccc1 | plaque count | EC50 | MDBK |  | 40 µM |
| CCCC(=O)O[C@H]1CN2CC[C@H](O)[C@@H]2[C@@H](O)[C@@H]1O | plaque count | EC50 | MDBK |  | 16.25 µM |
| COc1cc(O)c(CC=C(C)C)c(O)c1C(=O)/C=C/c1ccc(O)cc1 | cytopathic effect | EC50 | MDBK | NADL | 1.7 µg/mL |
| C[C@@]1(F)[C@H](O)[C@@H](CO)O[C@H]1n1ccc(N)nc1=O | replicon | EC90 | Huh7 |  | >100 µM |
| NC(=O)c1ncn([C@@H]2O[C@H](CO)[C@@H](O)[C@H]2O)n1 | cytopathic effect | EC50 | MDBK |  | 63 µM |
| CC1(C)C2CCC(N3C[C@H](O)[C@@H](O)[C@H](O)[C@H]3CO)C1C2 | plaque count | EC50 | MDBK |  | 150 µM |

The first 2 rows once more:

SMILES | read by | read-out | cell line | strain or isolate | result
CO[C@H]1O[C@@H]2O[C@@]3(C)CC[C@H]4[C@H](C)CC[C@@H]([C@H]1C)[C@@]24OO3 | MTS | EC50 | MDBK | PE515 | 0.3 µg/mL
CCCCN1C[C@H](O)[C@@H](O)[C@H](O)[C@H]1CO | plaque count | EC50 | MDBK |  | 125–200 µM